The MIC is the smallest concentration in the dilution series that meets the test's criterion for growth inhibition.

The values that follow come from ChEMBL document CHEMBL1671710, “Different classes of antibiotics differentially influence shiga toxin production” (2010).

This assay deals with Escherichia coli. The conditions noted are these: C600::933W.

The sequence GENTAMICIN registered an MIC of 0.5 µg/mL.
